From patent publication US20080045592A1, “Method of inhibiting growth and proliferation of listeria monocytogenes using levulinate” (Utah State University, priority 2006, published 2008) come the findings set out here.

The nature of this series: Consumer sensory panel, overall liking of turkey breast roll and bologna. Particulars: scale of 1 to 9 (9=strongly like).

For `CC(=O)CCC(=O)[O-].[Na+]` [sodium levulinate], the “Mean score for overall liking” value by setting is: (bologna, 1% additive, 112 consumers) 6.0; (bologna, 2% additive, 112 consumers) 6.0; (turkey breast roll, 2% additive, 132 consumers) 6.6; (turkey breast roll, 3% additive, 132 consumers) 6.6.
